Test system: weanling pigs
Conditions: Day 1 PM and following meal times

Compound: CC1=C[C@H]2O[C@@H]3[C@H](O)C[C@](C)([C@@]2(CO)[C@H](O)[C@@H]1O)[C@]31CO1
- persistence of the effect on food consumption: wore off by the next meal

Source: patent EP1366052B1 (priority 2001, dated 2002)
